Laboratory results taken from publication PMC6602958, “Pharmacokinetics of anti-infectious reagents in silkworms” (Scientific Reports, 2019).

Columns and labels:
[1] = test system: Candida albicans; assay: Antifungal activity (MIC) by micro dilution with or without silkworm hemolymph; assay type: cell-based; conditions: MIC with 10% hemolymph / MIC without hemolymph
Description: Antimicrobial and antifungal activities of each compound were measured by a micro dilution method[19],[20]. To measure protein binding to antifungal activity, silkworm hemolymph was collected by cutting the pseudopodium using scissors, and centrifuged at 3000 rpm for 5 min at 4 °C.

[2] = test system: Candida albicans; assay: Silkworm infection model with Candida albicans (ED50); assay type: in vivo, Bombyx mori (silkworm); conditions: ED50 against MIC in the absence of hemolymph

Row | Structure (SMILES) | MIC ratio (B/A) [1] | ED50/MIC(A) ratio [2]
1 | CC(=O)N1CCN(c2ccc(OCC3COC(Cn4ccnc4)(c4ccc(Cl)cc4Cl)O3)cc2)CC1 (stereo not shown) [Ketoconazole] | 33 | >250
2 | Clc1ccccc1C(c1ccccc1)(c1ccccc1)n1ccnc1 [Clotrimazole] | 33 | >250
